Experimental data: patent US20070249655A1, “4-Substituted-1,5-Dihydro-Pyrido[3,2-B]Indol-2-Ones” (priority 2004, published 2007)

Test system: HIV viruses
Assay: Cross resistance study with more than 8000 viruses

Structure (SMILES): Cn1c2ccccc2c2c1cc(C#N)c(=O)n2-c1ccc([N+](=O)[O-])cc1 [Compound 2, 5-methyl-1-(4-nitro-phenyl)-2-oxo-2,5-dihydro-1H-pyrido[3,2-b]indole-3-carbonitrile]
- calculated correlation coefficient with 3TC: about 0.63
- correlation coefficient with known NNRTIs (capravirine, delavirdine, nevirapine, efavirenz) (all cases): ≤ 0.13
- calculated correlation coefficient with known NRTIs (abacavir, AZT, D4T, DDC, DDI) (all cases except 3TC): lower than 0.28
